This passage reports Kd results from patent US12458691.

Test [1] has as its target BG505 SOSIP trimer (HIV-1 strain BG505). As to the kind of experiment: BLI (Octet), IgG on the sensor, apparent KD with IgG avidity. Background: Biolayer interferometry detects binding as a change in optical thickness at a sensor tip.
The target of test [2] is BG505 DS-SOSIP trimer (HIV-1 strain BG505). The description is as above.
Test [3] concerns the target FP8-1HQK (HIV-1 strain BG505). Kind of test: apparent KD; Octet BLI, antibody IgG on sensor (method per paragraph 361).
The target in test [4] is BG505 DS-SOSIP trimer (HIV-1 strain BG505). As to the kind of experiment: SPR, Fab over 2G12-captured trimer, 1:1 fit. In general terms: In SPR one partner is held on a chip, and binding of the other changes the refractive index at the surface.

Bounds are passed on as bounds.

As to ACS202 (antibody), the Kd in test [1] and in test [2] was below 1 pM each time.
As for PGT151 (antibody), the Kd in test [1], in test [2] and in test [3] was below 1 pM each time.
Turning to VRC01 (antibody), the Kd in test [1] and in test [2] was below 1 pM in each case.
Take VRC34.01 Fab: the Kd in test [4] came to 648 pM.
